Pooled drug test results. Numbers come from NIAID ChemDB, via PubChem.

All rows: growth or infection tests; agent: Mycobacterium tuberculosis

Rows are shuffled and stem from different studies.

smiles,strain,measure,read by,conditions,tested at,result
O=C(Nc1ccccc1)OCc1nc2c([nH]1)C(=O)C=CC2=O,H37Rv,MIC bound,BACTEC,,,>12.5 µg/mL
CO[C@H]1/C=C/O[C@@]2(C)Oc3c(C)c(O)c4c(O)c(c(/C=N/NS(=O)(=O)c5ccc(C)cc5)c(O)c4c3C2=O)NC(=O)/C(C)=C\C=C\[C@H](C)[C@H](O)[C@@H](C)[C@@H](O)[C@@H](C)[C@H](OC(C)=O)[C@@H]1C,H37Rv,EC50,,,,1 µg/mL
O=C1C=CC(O)(c2nc3ccccc3o2)C=C1,H37Rv,EC50,,,,<6.25 µg/mL
Cc1ccc2ccccc2c1-c1[nH]c(-c2ccc(Cl)cc2)cc1CN1CCN(c2cccc(C(F)(F)F)c2)CC1,27294,MIC,,,,4 µg/mL
CCOC(=O)/C(N=Nc1ccc(-c2n[nH]c(=S)n2C)cc1)=C(\C)O,H37Rv,EC50,,,,>6.25 µg/mL
Nc1ccc(Sc2ccc3ccccc3c2)c2ncccc12,H37Rv,MIC,,,,100 µg/mL
CC1CC2C3CCC4=CC(=O)C=CC4(C)C3(F)C(O)CC2(C)C1(O)C(=O)COP(=O)(O)O,H37Rv,inhibition,BACTEC,,6.25 µg/mL,0%
NC1CCN(CCCCn2ccc(Nc3cc(CO)ccn3)nc2=O)CC1,H37Rv,EC50,turbidity,,,≥1 µM
CCOC(=O)Cc1csc(NC(=O)C(SC(=S)N(CC)Cc2ccccc2)c2ccccc2)n1,H37Rv,MIC,,,,>156 µg/mL
Cc1ncnc2c1ncn2/N=C/c1ccc([N+](=O)[O-])cc1,H37Rv,inhibition,BACTEC,,12.5 µg/mL,11%
Cc1ccc2ccccc2c1-c1[nH]c(-c2ccc(Cl)cc2)cc1CN1CCN(c2ccccn2)CC1,27294,MIC,,,,4 µg/mL
CC(C)CC(NC(=O)C(Cc1c[nH]c2ccccc12)NC(=O)OC(C)(C)C)C(=O)NN,H37Rv,MIC bound,BACTEC,,,>12.5 µg/mL
CCCCCC1=CC(=O)C=C(OC)C1=O,,MIC,,,,60.3 µg/mL
CC1COc2c(N3CCN(C)CC3)c(F)cc3c(=O)c(C(=O)O)cn1c23,Clinical isolates,MIC,,clinical isolate,,0.5 µg/mL
NC1CCN(CCCCn2ccc(Nc3ccc(C4(O)CCNCC4)cn3)nc2=O)CC1,H37Rv,EC50,turbidity,,,≥1 µM
CO[C@H]1/C=C/O[C@@]2(C)Oc3c(C)c(O)c4c(O)c(c(/C=N/N(C)C)c(O)c4c3C2=O)NC(=O)/C(C)=C\C=C\[C@H](C)[C@H](O)[C@@H](C)[C@@H](O)[C@@H](C)[C@H](OC(C)=O)[C@@H]1C,H37Rv,EC50,,,,0.1 µg/mL
COc1ccc(OC)c(CO/N=C2/CCN(c3c(F)cc4c(=O)c(C(=O)O)cn(C5CC5)c4c3OC)CC2N)c1,H37Rv,MIC,resazurin,,,8 µg/mL
N#Cc1nc2cc(Cl)ccc2nc1Cl,H37Rv,MIC,,,,>12.5 µg/mL
CC(C)Cc1cnc(CC(C)C)c(=O)[nH]1,H37Rv,inhibition,BACTEC,,12.5 µg/mL,-11%
CCOC(=O)Cc1csc(NC(=O)CSC(=S)N2CCCC2)n1,H37Rv,MIC,,,,>156 µg/mL
CC(C)(C)c1cc(C(C)(C)C)c2oc(-c3ccccc3C(F)(F)F)nc2c1,H37Rv,inhibition,BACTEC,,6.25 µg/mL,<90%
COc1cc(Br)ccc1CO/N=C1/CCN(c2c(F)cc3c(=O)c(C(=O)O)cn(C4CC4)c3c2OC)CC1N,H37Rv,MIC,resazurin,,,16 µg/mL
COc1ccccc1N1CCN(Cc2cc(-c3ccc(Cl)cc3)[nH]c2-c2c(C)ccc3ccccc23)CC1,27294,MIC,,,,>16 µg/mL
COC(=O)Nc1c(C#N)[n+]([O-])c2ccccc2[n+]1[O-],H37Rv,MIC,,,,<12.5 µg/mL
CC(=O)ON=C(C)C(C)=NNc1ccccc1,H37Rv,inhibition,resazurin,,6.25 µg/mL,50%
O=C(O)C(=NNc1ccc(C(=O)N/N=C/c2ccc([N+](=O)[O-])o2)cc1)C(=O)O,H37Rv,MIC,,,,>6.25 µg/mL
Cn1c(N2CCN(CCO)CC2)nc2c1c(=O)n(CC(O)CN1CCN(CCO)CC1)c(=O)n2C,H37Rv,inhibition,BACTEC,,12.8 µg/mL,1%
N#Cc1ccc2c(c1)[n+]([O-])c(C#N)c(N)[n+]2[O-],H37Rv,MIC,,,,<12.5 µg/mL
O=P1(NNc2ncccn2)SC(NN=C2CCCCC2)=NC12CCCCC2,H37Rv,inhibition,BACTEC,,12.5 µg/mL,0%
Cc1ccc(Sc2ccc([N+](=O)[O-])c3cccnc23)cc1,H37Rv,MIC,,,,100 µg/mL
CCOC(=O)Cc1csc(NC(=O)CSC(=S)N2C(C)CCCC2C)n1,H37Rv,MIC,,,,>156 µg/mL
COC1(c2nc3ccc(C)cc3s2)C=CC(=NS(=O)(=O)c2ccc(C)cc2)C=C1,H37Rv,EC50,,,,>6.25 µg/mL
CC(=O)O[C@H]1C=C(C=O)[C@](O)(C=O)[C@@]2(C)CCCC(C)(C)C12,H37Rv,MIC bound,BACTEC,,,>12.5 µg/mL
CC1COc2c(N3CCN(C)CC3)c(F)cc3c(=O)c(C(=O)O)cn1c23,187 isolates,MIC90,,,,1 µg/mL
N#Cc1nc2ccccc2nc1Cl,H37Rv,MIC,,,,>12.5 µg/mL
Cc1ccc2nc(N)c(C#N)nc2c1,H37Rv,MIC,,,,>12.5 µg/mL
COc1ccc(-n2[nH]c(C)c(N=Nc3ccc(-c4n[nH]c(=S)n4C)cc3)c2=O)cc1,H37Rv,inhibition,,,6.25 µg/mL,1%
CC(C)(C)c1cc(C(C)(C)C)c2oc(-c3ccc([N+](=O)[O-])cc3)nc2c1,H37Rv,inhibition,BACTEC,,6.25 µg/mL,<90%
Nc1nc2c(C(=O)N3CCCC3)nnn2c2ccccc12,H37Rv,MIC bound,BACTEC,,,>12.5 µg/mL
CC(C)c1ccc2[nH]c3cc(C#N)c(=O)oc3c2c1,H37Rv,MIC99,resazurin,,,1.5 µg/mL
COc1cccc(CO/N=C2/CCN(c3c(F)cc4c(=O)c(C(=O)O)cn(C5CC5)c4c3OC)CC2N)c1OC,H37Rv,MIC,resazurin,,,8 µg/mL
Cc1cccc(-c2nc3cc(C(C)(C)C)cc(C(C)(C)C)c3o2)n1,H37Rv,inhibition,BACTEC,,6.25 µg/mL,<90%
Nc1ccc(S(=O)(=O)c2c(Cl)cccc2Cl)c2ncccc12,H37Rv,MIC,,,,1 µg/mL
CCSC1CC(=O)CC(SCC)C1(O)c1ccccc1,H37Rv,MIC,,,,>6.25 µg/mL
Cc1cc2nc(N)c(C#N)nc2cc1C,H37Rv,MIC,,,,>12.5 µg/mL
O=C(O)c1cc(=O)[nH]c(=S)[nH]1,H37Rv,inhibition,BACTEC,,12.5 µg/mL,0%
O=C1CC(Sc2ccccc2)C(O)(c2nc3ccccc3s2)C(Sc2ccccc2)C1,H37Rv,EC50,,,,<6.25 µg/mL
CO[C@H]1/C=C/O[C@@]2(C)Oc3c(C)c(O)c4c(O)c(c(/C=N/NCCO)c(O)c4c3C2=O)NC(=O)/C(C)=C\C=C\[C@H](C)[C@H](O)[C@@H](C)[C@@H](O)[C@@H](C)[C@H](OC(C)=O)[C@@H]1C,H37Rv,EC50,,,,1 µg/mL
CCOC(=O)Cc1csc(NC(=O)CSC(=S)N(CC)CC)n1,H37Rv,MIC,,,,>156 µg/mL
NC1CCN(CCCCn2ccc(Nc3ccc(COC[C@@H]4CCCN4)cn3)nc2=O)CC1,H37Rv,EC50,turbidity,,,0.5–1 µM
Nc1nccnc1C(=O)NO,H37Rv,MIC,BACTEC,,,≥12.5 µg/mL
Cc1ccc2[nH]c3cc(C#N)c(=O)oc3c2c1,H37Rv,MIC99,resazurin,,,0.3 µg/mL
Cc1cnc(C(=O)O)c(N)n1,H37Rv,MIC,BACTEC,,,≥12.5 µg/mL
NC1CCN(CCCCn2ccc(Nc3ccc(CNC4CNC4)cn3)nc2=O)CC1,H37Rv,EC50,turbidity,,,0.5–1 µM
CO[C@H]1/C=C/O[C@@]2(C)Oc3c(C)c(O)c4c(O)c(c(C=O)c(O)c4c3C2=O)NC(=O)/C(C)=C\C=C\[C@H](C)[C@H](O)[C@@H](C)[C@@H](O)[C@@H](C)[C@H](OC(C)=O)[C@@H]1C,H37Rv,EC50,,,,0.1 µg/mL
COc1ccc(CO/N=C2/CCN(c3c(F)cc4c(=O)c(C(=O)O)cn(C5CC5)c4c3OC)CC2N)cc1,H37Rv,MIC,resazurin,,,4 µg/mL
C=C1C(=O)O[C@@H]2C[C@@]3(C)CCC[C@H](C)C3=C[C@H]12,H37Rv,inhibition,BACTEC,,12.5 µg/mL,66%
CC(C)(C)c1cc(C(C)(C)C)c2oc(CO)nc2c1,H37Rv,inhibition,BACTEC,,6.25 µg/mL,<90%
CC(C)[C@@](O)(C(=O)OCC1CCN2CC[C@@H](O)C12)[C@@H](C)O,H37Rv,MIC,BACTEC,,,≥12.5 µg/mL
NC1CCN(CCCCn2ccc(Nc3ccc(CNC(=O)[C@@H](N)CO)cn3)nc2=O)CC1,H37Rv,EC50,turbidity,,,0.5–1 µM
CO[C@H]1/C=C/O[C@@]2(C)Oc3c(C)c(O)c4c(O)c(c(/C=N/N5CCN(Cc6ccccc6)CC5)c(O)c4c3C2=O)NC(=O)/C(C)=C\C=C\[C@H](C)[C@H](O)[C@@H](C)[C@@H](O)[C@@H](C)[C@H](OC(C)=O)[C@@H]1C,EMB-R,MIC,,,,0.02 µg/mL
CC(C)(C)c1cc(C(C)(C)C)c2oc(-c3ccc(Br)cc3)nc2c1,H37Rv,MIC,,,,>128 µg/mL
CCOC(=O)Cc1csc(NC(=O)C(SC(=S)N2CCCC2)c2ccccc2)n1,H37Rv,MIC,,,,>156 µg/mL
COC1(c2nc3ccccc3s2)C=CC(=NS(=O)(=O)c2ccc(C)cc2)C=C1,H37Rv,MIC,,,,>6.25 µg/mL
CCN(CC)CCNC(=O)Nc1c(C#N)[n+]([O-])c2cc(Cl)c(Cl)cc2[n+]1[O-],H37Rv,MIC,,,,<12.5 µg/mL
CCCN(CCC)/N=C/c1c2c(O)c3c(O)c(C)c4c(c3c1O)C(=O)[C@@](C)(O/C=C/[C@H](OC)[C@@H](C)[C@@H](OC(C)=O)[C@H](C)[C@H](O)[C@H](C)[C@@H](O)[C@@H](C)/C=C/C=C(/C)C(=O)N2)O4,H37Rv,EC50,,,,0.05 µg/mL
Cc1cc2c(cc1C)[n+]([O-])c(NCCCN(C)C)c(C#N)[n+]2[O-],H37Rv,MIC,,,,>12.5 µg/mL
COc1c(N2CC/C(=N/OCc3ccc(Cl)cc3)C(N)C2)c(F)cc2c(=O)c(C(=O)O)cn(C3CC3)c12,H37Rv,MIC,resazurin,,,0.125 µg/mL
CCOC(=O)NNC(=O)C(=O)NNC(=O)OCC,H37Rv,inhibition,BACTEC,,12.5 µg/mL,-9%
CCOC(=O)Cc1csc(NC(=O)C(SC(=S)N2CCOCC2)c2ccccc2)n1,H37Rv,MIC,,,,>156 µg/mL
CSc1ccc(-c2nc3cc(C(C)(C)C)cc(C(C)(C)C)c3o2)cc1,H37Rv,inhibition,BACTEC,,6.25 µg/mL,<90%
O=C1C=C2C(=NC34CCCCC3C(c3ccccc3)C3=C(c5ccccc5CC3)N24)c2ccccc21,H37Rv,MIC bound,BACTEC,,,≤12.5 µg/mL
CO[C@H]1/C=C/O[C@@]2(C)Oc3c(C)c(O)c4c(O)c(c(/C=N/N(OC)OC)c(O)c4c3C2=O)NC(=O)/C(C)=C\C=C\[C@H](C)[C@H](O)[C@@H](C)[C@@H](O)[C@@H](C)[C@H](OC(C)=O)[C@@H]1C,H37Rv,EC50,,,,5 µg/mL
CCOC(=O)/C(N=Nc1ccc(C(=O)N/N=C/c2ccc([N+](=O)[O-])o2)cc1)=C(\C)O,H37Rv,inhibition,,,12.5 µg/mL,95%
CO/C(=N\N=C(\c1ccccc1)C(F)(F)F)c1ccncc1,,inhibition,BACTEC,,0.5 µM,0%
O=[N+]([O-])c1ccc(S(=O)(=O)c2cccc(Cl)c2Cl)c2ncccc12,H37Rv,MIC,,,,>200 µg/mL
O=C1C=CC(O)(c2cccc3ccccc23)C=C1,H37Rv,EC50,,,,<6.25 µg/mL
Cc1ccc(Oc2ccc([N+](=O)[O-])c3cccnc23)cc1C,H37Rv,MIC,,,,1 µg/mL
Nc1c([N+](=O)[O-])ccc2c1Oc1ccccc1O2,H37Rv,MIC bound,resazurin,,,>6.25 µg/mL
Cc1ccc(C)c(Oc2ccc(N)c3cccnc23)c1,H37Rv,MIC,,,,40 µg/mL
CC(C)(C)c1cc(C(C)(C)C)c2oc(-c3ccccn3)nc2c1,H37Rv,MIC,BACTEC,,,>6.25 µg/mL

For reference, 10 entries again:

smiles | strain | measure | read by | conditions | tested at | result
N#Cc1ccc2c(c1)[n+]([O-])c(C#N)c(N)[n+]2[O-] | H37Rv | MIC |  |  |  | <12.5 µg/mL
CC1CC2C3CCC4=CC(=O)C=CC4(C)C3(F)C(O)CC2(C)C1(O)C(=O)COP(=O)(O)O | H37Rv | inhibition | BACTEC |  | 6.25 µg/mL | 0%
CCOC(=O)Cc1csc(NC(=O)C(SC(=S)N2CCCC2)c2ccccc2)n1 | H37Rv | MIC |  |  |  | >156 µg/mL
CC(=O)O[C@H]1C=C(C=O)[C@](O)(C=O)[C@@]2(C)CCCC(C)(C)C12 | H37Rv | MIC bound | BACTEC |  |  | >12.5 µg/mL
O=C(Nc1ccccc1)OCc1nc2c([nH]1)C(=O)C=CC2=O | H37Rv | MIC bound | BACTEC |  |  | >12.5 µg/mL
Cc1ccc2nc(N)c(C#N)nc2c1 | H37Rv | MIC |  |  |  | >12.5 µg/mL
Cc1cc2c(cc1C)[n+]([O-])c(NCCCN(C)C)c(C#N)[n+]2[O-] | H37Rv | MIC |  |  |  | >12.5 µg/mL
CO[C@H]1/C=C/O[C@@]2(C)Oc3c(C)c(O)c4c(O)c(c(/C=N/N5CCN(Cc6ccccc6)CC5)c(O)c4c3C2=O)NC(=O)/C(C)=C\C=C\[C@H](C)[C@H](O)[C@@H](C)[C@@H](O)[C@@H](C)[C@H](OC(C)=O)[C@@H]1C | EMB-R | MIC |  |  |  | 0.02 µg/mL
CC(=O)ON=C(C)C(C)=NNc1ccccc1 | H37Rv | inhibition | resazurin |  | 6.25 µg/mL | 50%
COC1(c2nc3ccccc3s2)C=CC(=NS(=O)(=O)c2ccc(C)cc2)C=C1 | H37Rv | MIC |  |  |  | >6.25 µg/mL

Percent inhibition refers to the dose given; in toxicity tests it is the harm to the cells. Blank or dashed fields: not listed here. MIC50, MIC90 and the like: level of inhibition, or share of isolates inhibited. MIC bound: limit read from a one-dose screen. ECn: concentration that inhibits the pathogen or its effect by n%. Two numbers with a dash give a range or band.